Anti-infective test results gathered from many reports (values: NIAID ChemDB through PubChem).

All rows: growth or infection tests

Lines come from different laboratories, so protocols vary.

structure	organism	strain or isolate	cells	read by	endpoint	tested at	result
CC[C@@H](C(=O)[C@@H](C)[C@@H](O)[C@H](C)CCc1ccc(C)c(O)c1C(=O)O)[C@H]1O[C@](CC)([C@H]2CC[C@](O)(CC)[C@H](C)O2)C[C@@H]1C	Cryptosporidium parvum	IOWA	MDCK	luminescence	inhibition	1 µg/mL	84.6%
Oc1ccccc1N=Cc1ccc2c(c1)OCO2	Cryptococcus neoformans	VM-MCMMPI	-	-	MIC99	-	5.7 µg/mL
COc1ccc(/C=C2\Oc3cc(O)cc(O)c3C2=O)cc1O	Cryptosporidium parvum	-	-	-	inhibition	10 µM	7%
CC(=O)Oc1cccc2c1C(=O)c1c(cnn1C)C2=O	Cryptosporidium parvum	-	-	-	inhibition	25 µM	100%
O=C(c1ccccc1)c1oc2cc(O)cc(O)c2c1O	Cryptosporidium parvum	-	-	-	EC50	-	>50 µM
CCOC(=O)c1c(C)nc(NCCCCNc2ccnc3cc(Cl)ccc23)nc1-c1ccccc1	Cryptococcus neoformans	LMM 820	-	-	MIC99	-	8 µg/mL
COc1cc(/C=C2\Oc3cc(O)cc(O)c3C2=O)ccc1O	Cryptosporidium parvum	-	-	-	inhibition	50 µM	96%
C[C@@H](c1ncncc1F)[C@](O)(Cn1cncn1)c1ccc(F)cc1F	Cryptococcus gattii	VG IIa	-	broth dilution	MIC90	-	0.125 µg/mL
CCOC(=O)c1c(C)nc(NCCCCNc2ccnc3cc(Cl)ccc23)nc1-c1ccc(F)cc1	Cryptococcus gattii	23/10993	-	-	MIC99	-	5.7 µg/mL
COc1ccc(/C=C2\Oc3cc(O)ccc3C2=O)cc1OC	Cryptosporidium parvum	-	-	-	inhibition	50 µM	93%
CCn1nc(Cc2ccccc2)c2c1C(=O)c1c(OC(C)=O)c(C)c(C)c(OC(C)=O)c1C2=O	Cryptosporidium parvum	-	-	-	inhibition	25 µM	<10%
O=C1/C(=C/c2ccccc2)Oc2cc(O)ccc21	Cryptosporidium parvum	-	-	-	EC50	-	>50 µM
CN[C@H]1CC[C@@H](c2ccc(Cl)c(Cl)c2)c2ccccc21	Cryptococcus neoformans	JEC21	-	broth dilution	MFC	-	6 µg/mL
O=[N+]([O-])c1ccc(C=Nc2ccccc2O)cc1	Cryptococcus neoformans	ATCC 24067	-	-	MIC99	-	8 µg/mL
Cn1nc(Cc2ccc(Cl)cc2)c2ccccc2c1=O	Cryptococcus neoformans	Clinical isolate (IM 972751)	-	broth dilution	MIC50	-	31.3 µg/mL
COc1cc(/C=C2\Oc3cc(O)cc(O)c3C2=O)cc(OC)c1O	Cryptosporidium parvum	-	-	-	inhibition	50 µM	94%
NC[C@@H]1O[C@H](O[C@H]2[C@@H](O)[C@H](O[C@@H]3[C@@H](O)[C@H](N)C[C@H](N)[C@H]3O[C@H]3O[C@H](CO)[C@@H](O)[C@H](O)[C@H]3N)O[C@@H]2CO)[C@H](N)[C@@H](O)[C@@H]1O	Cryptosporidium parvum	-	MDBK	cell count	inhibition	2000 µg/mL	81.9%
CCC(C)CC(C)CCCCCCCCC(=O)N[C@H]1C[C@@H](O)[C@H](NCCN)NC(=O)[C@@H]2[C@@H](O)CCN2C(=O)[C@H]([C@H](O)CCN)NC(=O)[C@H]([C@H](O)[C@@H](O)c2ccc(O)cc2)NC(=O)[C@@H]2C[C@@H](O)CN2C(=O)[C@H]([C@@H](C)O)NC1=O	Cryptococcus gattii	CBS 10865	-	broth dilution	MIC	-	16 µg/mL
O=C1/C(=C/c2cccc(O)c2)Oc2cc(O)ccc21	Cryptosporidium parvum	-	-	-	EC50	-	10–25 µM
CC1(C)O[C@H]2[C@H](O)[C@@H](N=[N+]=[N-])C=C(c3ccc(C=O)cc3)[C@H]2O1	Cryptococcus neoformans	ATCC 32264	-	broth dilution / turbidity	inhibition	31.25 µg/mL	0%
NCCCC[C@H](NC(=O)[C@@H](N)CCCCN)C(=O)N[C@@H](CCC(N)=O)C(=O)N[C@@H](CCCN=C(N)N)C(=O)O	Cryptococcus neoformans	ATCC 32264	-	-	inhibition	25 µM	62%
Oc1ccc(O)c(C=Nc2ccccc2O)c1	Cryptococcus gattii	196L/03	-	-	MIC99	-	8 µg/mL
O=C(c1ccccc1)c1oc2cc(O)cc(Cc3ccccc3)c2c1O	Cryptosporidium parvum	-	-	-	EC50	-	>50 µM
Oc1ccccc1N=Cc1ccccc1	Cryptococcus gattii	547/OTTI-97-PI-10	-	-	MIC99	-	11.3 µg/mL
CC(=O)Oc1ccccc1C(=O)Nc1ncc([N+](=O)[O-])s1	Cryptosporidium parvum	-	A549	-	inhibition	0.5 µg/mL	11.8%
Oc1ccccc1C=Nc1ccccc1O	Cryptococcus neoformans	5396	-	-	MIC99	-	5.7 µg/mL
O=C1c2cn[nH]c2C(=O)c2c(O)ccc(O)c21	Cryptosporidium parvum	-	-	-	inhibition	25 µM	100%

For reference, 2 entries again:

CCn1nc(Cc2ccccc2)c2c1C(=O)c1c(OC(C)=O)c(C)c(C)c(OC(C)=O)c1C2=O ; organism: Cryptosporidium parvum ; endpoint: inhibition ; tested at: 25 µM ; result: <10%
CCOC(=O)c1c(C)nc(NCCCCNc2ccnc3cc(Cl)ccc23)nc1-c1ccccc1 ; organism: Cryptococcus neoformans ; strain or isolate: LMM 820 ; endpoint: MIC99 ; result: 8 µg/mL

Inhibition is in % at the dose shown (toxicity tests: loss of growth or viability). ECn: concentration that inhibits the pathogen or its effect by n%. MIC50, MIC90 and the like: level of inhibition, or share of isolates inhibited. An empty or dashed field is not shown. a–b is a range or a potency band.